Columns and labels:
[1] = tested on: Magnaporthe grisea; assay: Rice blast disease pot test (Test Example A); details: 250 ppm sprayed, 2.5 ml/pot; rice variety Sachikaze; degree of disease development 6 to 8 days after inoculation
[2] = tested on: Botrytis cinerea; assay: Tomato gray mold pot test (Test Example B); details: 250 ppm sprayed, 2.5 ml/pot; tomato variety Oogata Fukuju; degree of disease development 2 to 3 days after inoculation
[3] = tested on: Gray mold fungus (Botrytis cinerea); assay: Gray mold anti-germ test (Test Example C); details: 50 ppm/well; Czapek-dox broth; 25°C for 3 days; absorbance 600 nm
[4] = tested on: Fusarium blight fungus (Fusarium graminearum); assay: Fusarium blight anti-germ test (Test Example D); details: 50 ppm/well; Czapek-dox broth; 25°C for 3 days; absorbance 600 nm
[5] = tested on: Anthracnose fungus (Glomerella cingulata); assay: Anthracnose anti-germ test (Test Example E); details: 50 ppm/well; Czapek-dox broth; 25°C for 3 days; absorbance 600 nm
[6] = tested on: Speckled leaf blotch fungus (Septoria tritici); assay: Speckled leaf blotch anti-germ test (Test Example F); details: 50 ppm/well; Czapek-dox broth; 25°C for 3 days; absorbance 600 nm

Row | Structure (SMILES) | Rice blast disease pot test (control value) [1] | Tomato gray mold pot test (control value) [2] | Gray mold anti-germ test (rate of inhibition) [3] | Fusarium blight anti-germ test (rate of inhibition) [4] | Anthracnose anti-germ test (rate of inhibition) [5] | Speckled leaf blotch anti-germ test (rate of inhibition) [6]
1 | Cc1ccc2c(ncn2C2=NC(C)(C)Oc3c(Cl)cccc32)c1C | H (H represents a control value or rate of inhibition of larger than 50%) | H (H represents a control value or rate of inhibition of larger than 50%) | H (H represents a control value or rate of inhibition of larger than 50%) | H (H represents a control value or rate of inhibition of larger than 50%) | H (H represents a control value or rate of inhibition of larger than 50%) | L (L represents a control value or rate of inhibition of 50% or less)
2 | Cc1ccc2c(ncn2C2=NC(C)(C)[S+]([O-])c3c(F)cccc32)c1C (stereo not drawn) | H (H represents a control value or rate of inhibition of larger than 50%) | H (H represents a control value or rate of inhibition of larger than 50%) | H (H represents a control value or rate of inhibition of larger than 50%) | H (H represents a control value or rate of inhibition of larger than 50%) | H (H represents a control value or rate of inhibition of larger than 50%) | L (L represents a control value or rate of inhibition of 50% or less)
3 | Cc1cccc2c1ncn2C1=NC(C)(C)Sc2ccccc21 | H (H represents a control value or rate of inhibition of larger than 50%) | H (H represents a control value or rate of inhibition of larger than 50%) | H (H represents a control value or rate of inhibition of larger than 50%) | H (H represents a control value or rate of inhibition of larger than 50%) | H (H represents a control value or rate of inhibition of larger than 50%) | H (H represents a control value or rate of inhibition of larger than 50%)
4 | Cc1ccc2c(C3=NC(C)(C)Oc4c3cccc4C3CC3)cnn2c1C | H (H represents a control value or rate of inhibition of larger than 50%) | H (H represents a control value or rate of inhibition of larger than 50%) | H (H represents a control value or rate of inhibition of larger than 50%) | H (H represents a control value or rate of inhibition of larger than 50%) | H (H represents a control value or rate of inhibition of larger than 50%) | H (H represents a control value or rate of inhibition of larger than 50%)
5 | Cc1c(F)ccc2c1ncn2C1=NC(C)(C)Oc2cc(Br)ccc21 | L (L represents a control value or rate of inhibition of 50% or less) | H (H represents a control value or rate of inhibition of larger than 50%) | H (H represents a control value or rate of inhibition of larger than 50%) | L (L represents a control value or rate of inhibition of 50% or less) | L (L represents a control value or rate of inhibition of 50% or less) | L (L represents a control value or rate of inhibition of 50% or less)
6 | CCc1ccc2c(c1)OC(C)(C)N=C2n1cnc2c(C)c(C)ccc21 | H (H represents a control value or rate of inhibition of larger than 50%) | H (H represents a control value or rate of inhibition of larger than 50%) | H (H represents a control value or rate of inhibition of larger than 50%) | H (H represents a control value or rate of inhibition of larger than 50%) | H (H represents a control value or rate of inhibition of larger than 50%) | H (H represents a control value or rate of inhibition of larger than 50%)
